Assay results taken from PubChem BioAssay (NCATS).
The list shows a part of the results, in another mix than the full data. Inconclusive results are not listed. For part of these data: Measured potencies and affinities stand elsewhere. Active and inactive are the calls of the source. For most assays here, calls follow the shape of the dose curve; as a rule, active = well fitted curve in the direction sought with a large enough effect; inconclusive = small, poorly fitted or top-dose-only effect, or another doubt; inactive = no such curve, though single readings can be large; an effect the other way counts as inactive or inconclusive.

Protein sequences, listed by entry. Tags and fused reporters are not part of them. Lines headed by an entry give the natural chain unless they say otherwise; changes in a name come on top.
UniProt P13267: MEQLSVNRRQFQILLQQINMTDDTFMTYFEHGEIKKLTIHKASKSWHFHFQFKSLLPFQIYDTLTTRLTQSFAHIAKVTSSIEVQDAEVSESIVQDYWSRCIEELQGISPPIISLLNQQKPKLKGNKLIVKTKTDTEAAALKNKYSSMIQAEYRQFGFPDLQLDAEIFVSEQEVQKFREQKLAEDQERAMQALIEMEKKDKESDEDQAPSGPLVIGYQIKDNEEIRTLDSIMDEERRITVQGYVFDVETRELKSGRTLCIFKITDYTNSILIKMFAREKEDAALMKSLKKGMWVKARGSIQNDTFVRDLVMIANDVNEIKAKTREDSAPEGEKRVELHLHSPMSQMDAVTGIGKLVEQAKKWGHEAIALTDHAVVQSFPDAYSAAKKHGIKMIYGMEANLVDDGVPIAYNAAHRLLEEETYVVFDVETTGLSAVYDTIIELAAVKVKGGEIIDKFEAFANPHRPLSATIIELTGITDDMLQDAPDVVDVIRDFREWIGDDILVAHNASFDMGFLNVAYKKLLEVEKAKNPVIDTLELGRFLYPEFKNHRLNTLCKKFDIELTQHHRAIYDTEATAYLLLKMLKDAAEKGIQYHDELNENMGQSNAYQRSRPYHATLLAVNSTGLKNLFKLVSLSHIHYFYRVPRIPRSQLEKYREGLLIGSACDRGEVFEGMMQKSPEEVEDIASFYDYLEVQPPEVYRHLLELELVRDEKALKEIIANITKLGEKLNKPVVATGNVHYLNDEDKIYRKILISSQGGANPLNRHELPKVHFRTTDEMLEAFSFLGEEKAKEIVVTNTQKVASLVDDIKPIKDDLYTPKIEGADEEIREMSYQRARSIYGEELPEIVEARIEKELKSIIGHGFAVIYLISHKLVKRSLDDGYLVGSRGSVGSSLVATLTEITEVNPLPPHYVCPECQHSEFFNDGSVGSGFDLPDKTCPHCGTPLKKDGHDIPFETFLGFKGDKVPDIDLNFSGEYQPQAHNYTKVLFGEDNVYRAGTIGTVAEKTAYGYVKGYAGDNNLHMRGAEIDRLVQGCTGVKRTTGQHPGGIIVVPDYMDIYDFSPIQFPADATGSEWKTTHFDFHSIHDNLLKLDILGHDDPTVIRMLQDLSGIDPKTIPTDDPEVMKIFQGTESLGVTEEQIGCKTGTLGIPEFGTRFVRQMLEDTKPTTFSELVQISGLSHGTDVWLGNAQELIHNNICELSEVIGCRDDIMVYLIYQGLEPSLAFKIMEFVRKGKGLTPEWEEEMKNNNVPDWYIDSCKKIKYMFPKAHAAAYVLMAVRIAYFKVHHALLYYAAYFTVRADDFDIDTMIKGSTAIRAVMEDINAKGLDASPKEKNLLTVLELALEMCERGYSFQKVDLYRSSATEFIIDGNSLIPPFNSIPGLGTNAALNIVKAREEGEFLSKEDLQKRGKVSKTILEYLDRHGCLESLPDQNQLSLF
UniProt Q99816: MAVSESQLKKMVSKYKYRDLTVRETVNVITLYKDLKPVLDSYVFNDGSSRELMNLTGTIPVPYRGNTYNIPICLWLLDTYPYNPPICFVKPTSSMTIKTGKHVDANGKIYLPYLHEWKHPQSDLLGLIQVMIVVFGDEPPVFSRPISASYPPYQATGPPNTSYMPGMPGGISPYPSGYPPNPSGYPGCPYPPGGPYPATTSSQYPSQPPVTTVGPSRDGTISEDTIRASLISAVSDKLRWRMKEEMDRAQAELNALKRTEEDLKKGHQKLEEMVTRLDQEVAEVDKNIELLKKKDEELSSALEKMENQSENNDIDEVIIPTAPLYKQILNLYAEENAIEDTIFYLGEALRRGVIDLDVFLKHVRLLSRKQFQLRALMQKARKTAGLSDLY
UniProt O15648: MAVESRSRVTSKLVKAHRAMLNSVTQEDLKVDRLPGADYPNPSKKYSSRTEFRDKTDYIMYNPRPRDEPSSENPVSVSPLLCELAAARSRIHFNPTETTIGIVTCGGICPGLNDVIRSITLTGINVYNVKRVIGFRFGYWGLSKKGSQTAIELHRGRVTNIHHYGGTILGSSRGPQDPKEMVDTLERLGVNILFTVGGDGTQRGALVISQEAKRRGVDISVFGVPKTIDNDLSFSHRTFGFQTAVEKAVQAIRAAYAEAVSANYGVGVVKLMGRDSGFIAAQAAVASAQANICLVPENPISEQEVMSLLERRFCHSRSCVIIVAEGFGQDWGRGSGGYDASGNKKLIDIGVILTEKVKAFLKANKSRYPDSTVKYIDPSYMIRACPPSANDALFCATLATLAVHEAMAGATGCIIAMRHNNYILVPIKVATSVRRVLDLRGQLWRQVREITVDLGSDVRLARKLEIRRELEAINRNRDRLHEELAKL
UniProt P09992: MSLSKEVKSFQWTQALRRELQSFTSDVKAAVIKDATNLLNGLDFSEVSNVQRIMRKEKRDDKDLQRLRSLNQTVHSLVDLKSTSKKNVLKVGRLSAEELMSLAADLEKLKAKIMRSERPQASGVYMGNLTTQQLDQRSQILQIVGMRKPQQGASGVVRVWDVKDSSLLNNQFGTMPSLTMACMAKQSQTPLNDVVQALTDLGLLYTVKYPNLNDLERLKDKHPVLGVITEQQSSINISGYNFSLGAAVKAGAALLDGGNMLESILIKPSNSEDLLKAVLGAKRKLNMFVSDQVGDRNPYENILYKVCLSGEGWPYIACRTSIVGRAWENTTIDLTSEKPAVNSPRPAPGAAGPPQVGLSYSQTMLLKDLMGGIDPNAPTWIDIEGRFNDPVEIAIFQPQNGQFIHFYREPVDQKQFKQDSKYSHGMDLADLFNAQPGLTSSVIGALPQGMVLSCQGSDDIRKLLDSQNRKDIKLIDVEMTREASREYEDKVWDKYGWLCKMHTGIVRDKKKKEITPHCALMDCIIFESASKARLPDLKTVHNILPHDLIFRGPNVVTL

Columns and labels:
[1] = Ebola virus entry assay, ratio channel
[2] = Ebola virus entry assay, green channel fluorescence
[3] = Ebola virus entry assay, reporter ratio channel; Channel type: primary
[4] = Ebola virus entry assay, blue channel (ratio component)
[5] = NS1 protein of Zika virus - qHTS assay to identify small molecule inhibitors in human HEK 293 cells (AID 1347053); details: HEK293 ZIKV MR766 infection, NS1 TR-FRET, 24 h; at 46.1 µM (top of the series) unless noted;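 also: plate controls were infected untreated cells for no effect and uninfected cells for full effect; nearly all actives have a fitted effect of over 55% in size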
[6] = qHTS for Inhibitors of the Functional Ribonucleoprotein Complex (vRNP) of Lymphocytic Choriomeningitis Arenaviruses (LCMV): Viability assay - alamar blue signal for LCMV Primary Screen (AID 1347085; calls by dose curve; tested in HEK293 reporter line; also: % is scaled to controls: 0 for no effect and ±100 for the full control effect; nearly all actives have a fitted effect of over 80% in size); details: alamar blue viability counter-screen, LCMV vRNP screen cells; at 57.5 µM (top of the series) unless noted
[7] = tested on: Zika virus NS2B-NS3 protease; assay: Primary screen GU AMC qHTS for Zika virus inhibitors (AID 1347154); details: Zika NS2B-NS3 unlinked protease, AMC fluorogenic substrate; at 54.1 µM (top of the series) unless noted;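 also: 0% = no-inhibitor control and -100% = no-enzyme control; nearly all actives have a fitted effect of over 70% in size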
[8] = Primary qHTS for inhibitors of La Crosse Virus (LACV) - induced cell death in SH-SY5Y cells (AID 1508616); details: SH-SY5Y LACV cytopathicity rescue, ATP luminescence, 6 d; at 9.63 µM (top of the series) unless noted;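 also: top concentration of the series differs between compounds; 0% = infected DMSO wells and 100% = uninfected DMSO wells; higher means more rescue of cells from virus-induced death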
In short: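 Rescue of virus-induced death was read as ATPLite luminescence after 6 days at 37C, scaled between DMSO wells with LACV and without virus. Cells were SH-SY5Y, 6000/well, infected at 0.01 MOI after compound addition.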

[9] = target: Endonuclease 4 (Escherichia coli (strain K12)) (UniProt P0A6C1); assay: Counterscreen for APE1 Inhibitors: qHTS Validation Assay for Inhibitors of Endonuclease IV (AID 1708); also: % is scaled to controls: 0 for no effect and ±100 for the full control effect; details: E. coli endonuclease IV, DNA cleavage fluorescence; at 57.1 µM (top of the series)
In short: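 Incision of a double-stranded 50 nM TAMRA/BHQ-2 abasic substrate was followed kinetically (525/598 nm, reads every 60 s) after 15 min enzyme–compound preincubation with 2 nM EndoIV in pH 7.5 Tris buffer with MgCl2, DTT and Tween-20; concentration-response format.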

[10] = qHTS for differential inhibitors of proliferation of Plasmodium falciparum line 3D7 (AID 1876); also: potency is read from the fitted curve at half-maximal effect; details: P. falciparum 3D7 proliferation inhibition
[11] = Validation screen for inhibitors of Lassa infection (AID 463096; calls by dose curve; also: % is scaled to controls: 0 for no effect and ±100 for the full control effect); details: Lassa virus infection, cell-based; at 46.1 µM (top of the series)
[12] = target: DNA polymerase III PolC-type (Bacillus subtilis (strain 168)) (UniProt P13267); assay: qHTS Validation Assay for the Inhibitors of DNA Replication in Gram-Positive Bacteria (AID 485295); details: Gram-positive bacterial DNA replication assay; at 57.1 µM (top of the series);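 also: PicoGreen fluorescence of double-stranded DNA made on primed circular M13 template; 0% = DMSO wells and -100% = EDTA-quenched background wells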
In short: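 Reconstituted B. subtilis holoenzyme (Pol III, beta clamp, SSB, primase) was preincubated with compound at room temperature, then given single-stranded circular M13Gori plus dNTPs and NTPs. EDTA-containing PicoGreen stopped the reaction, and dsDNA product was read by fluorescence.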

[13] = target: Tumor susceptibility gene 101 protein (Homo sapiens) (UniProt Q99816); assay: qHTS Validation Assay for Iinhibitors of HIV-1 Budding by Blocking the Interaction of PTAP/TSG101 (AID 485342; calls by dose curve; also: 0% is about no effect); details: TSG101-PTAP binding, fluorescence polarization, 4-point titration; at 115 µM (top of the series)
In short: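 Tsg101 binding domain (10 uM final) in pH 7.5 HEPES/NaCl/Tween 20/EDTA/TCEP buffer was mixed with pin-transferred compounds, then FITC-labeled PTAP peptide (50 nM final) was added; after 20 min at r.t., fluorescence polarization was read.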

[14] = target: ATP-dependent 6-phosphofructokinase (Trypanosoma brucei brucei) (UniProt O15648); assay: qHTS Validation Assay to Find Inhibitors of T. brucei phosphofructokinase (AID 485368); details: T. brucei PFK enzyme assay, qHTS 7-point titration; at 57.5 µM (top of the series)
[15] = Quantitative high throughput screen for delayed death inhibitors of the malarial parasite plastid, 48 hour incubation (AID 488752); details: Plasmodium falciparum growth; at 28.7 µM (top of the series); also: % is scaled to controls: 0 for no effect and ±100 for the full control effect; nearly all actives have a fitted effect of over 65% in size
In short: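 One-generation (48 h) growth assay: a decrease in luciferase signal from an integrated reporter in P. falciparum-infected red cells (0.1% parasitemia, 2% hematocrit) after compound exposure at 37 C indicates parasite inhibition.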

[16] = target: Phosphoglycerate kinase, glycosomal (Trypanosoma brucei brucei) (UniProt P07378); assay: qHTS Validation Assay to Find Inhibitors of Phosphoglycerate Kinase (AID 504547); details: enzymatic PGK inhibition, coupled luminescence read-out; at 57.5 µM (top of the series);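 also: control wells lack PGK and mark full inhibition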
In short: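 Luminescence end-point (Kinase-Glo Plus, 10 min) after a 60 min room-temperature coupled reaction. GAPDH at 100nM final supplies 1,3-BPG to PGK. Buffer: 100mM TEA pH 7.6, 5mM MgCl2, 0.01% Tween-20. Wells lacking PGK served as controls.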

[17] = target: phosphoglycerate mutase (Leishmania major) (UniProt Q4Q090); assay: qHTS Validation Assay to Find Inhibitors of Phosphoglycerate Mutase (AID 504548); details: biochemical enzyme activity; at 57.5 µM (top of the series); also: % is scaled to controls: 0 for no effect and ±100 for the full control effect
In short: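 Luminescent end-point read-out via Kinase-GloPlus after a 10-minute development. Reaction: 1.25nM Leishmania major PGAM with substrate and compound, 45 minutes at room temperature in TEA buffer (pH 7.6) with MgCl2 and Tween-20.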

[18] = qHTS of Trypanosoma Brucei Inhibitors: LOPAC Validation (AID 624147); details: Trypanosoma brucei growth inhibition; at 57.5 µM (top of the series); also: 0% is about no effect
In short: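 Luminescent Kinase-Glo Plus end-point after 45 min room-temperature reaction of T. brucei pyruvate kinase started with 130 uM ADP (final). Buffer TEA 50 mM pH 7.2 with KCl, MgCl2, BSA, Tween-20; titration-based qHTS with fitted concentration-effect curves.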

[19] = qHTS assay for measurement of the activity of small molecule inhibitors on Zika virus induced Caspase-3 activity in human iPSC derived neural progenitor cells (hNPCs) (AID 1224857); details: hNPCs ZIKV-induced caspase-3/7, Caspase-Glo luminescence, 6 h; at 45.7 µM (top of the series) unless noted; also: % of control where 0% means no effect; nearly all actives have a fitted effect of over 65% in size
[20] = qHTS assay for measurement of the activity of small molecule inhibitors on Zika virus induced Caspase-3 activity in human astrocytoma cells (AID 1224859); details: SNB-19 ZIKV-induced caspase-3/7, luminescence, 6 h; at 45.7 µM (top of the series) unless noted;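 also: plate controls were ZIKV-infected untreated cells for no effect and uninfected cells for full effect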
[21] = qHTS for Inhibitors of the Functional Ribonucleoprotein Complex (vRNP) of Lassa (LASV) Arenavirus: LASV Primary Screen - GLuc reporter signal (AID 1347082; calls by dose curve; tested in HEK293 reporter line; also: % is scaled to controls: 0 for no effect and ±100 for the full control effect; nearly all actives have a fitted effect of over 60% in size); details: LASV minigenome vRNP, Gaussia luciferase reporter; at 57.5 µM (top of the series) unless noted
[22] = qHTS for Inhibitors of the Functional Ribonucleoprotein Complex (vRNP) of Lassa (LASV) Arenavirus: Viability assay - alamar blue signal for LASV Primary Screen (AID 1347083; calls by dose curve; tested in HEK293 reporter line; also: % is scaled to controls: 0 for no effect and ±100 for the full control effect; nearly all actives have a fitted effect of over 80% in size); details: cell viability, alamar blue fluorescence (LASV minigenome counter-screen); at 57.5 µM (top of the series) unless noted
[23] = target: Nucleoprotein (Lymphocytic choriomeningitis virus (strain Armstrong)) (UniProt P09992); assay: qHTS for Inhibitors of the Functional Ribonucleoprotein Complex (vRNP) of Lymphocytic Choriomeningitis Arenaviruses (LCMV): LCMV Primary Screen - GLuc reporter signal (AID 1347086; calls by dose curve; also: % is scaled to controls: 0 for no effect and ±100 for the full control effect; nearly all actives have a fitted effect of over 70% in size); details: LCMV minigenome vRNP cell assay, Gaussia luciferase reporter; at 57.5 µM (top of the series) unless noted
[24] = tested on: Zika virus NS2B-NS3 protease (unlinked); assay: Optimization of GU AMC qHTS for Zika virus inhibitors: Unlinked NS2B-NS3 protease assay (AID 1347151); details: recombinant ZIKV NS2B-NS3 protease, fluorogenic AMC substrate; at 52.5 µM (top of the series);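 also: 0% = no-inhibitor control and -100% = no-enzyme control; nearly all actives have a fitted effect of over 80% in size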
In short: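 Noncovalent complex of NS2B hydrophilic domain and NS3 protease domain, 25 nM final, in 10 mM Tris-HCl pH 8.0, 0.01% Tween 20. AMC fluorescence change over 15 min at room temperature was fitted to a 4-parameter Hill equation.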

[25] = tested on: Zika virus NS2B-NS3 protease (unlinked complex); assay: Primary screen GU Rhodamine qHTS for Zika virus inhibitors: Unlinked NS2B-NS3 protease assay (AID 1347159); details: Recombinant ZIKV NS2B-NS3 protease, Rhodamine110 substrate fluorescence; at 107 µM (top of the series); also: % is scaled to controls: 0 for no effect and ±100 for the full control effect; nearly all actives have a fitted effect of over 60% in size
In short: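 Enzyme 25 nM in Tris-HCl pH 8.0 + 0.01% Tween 20; compounds up to 114 microM, 15 min RT dark; + Rhod110 substrate 1.5 microM; read t0 and 15 min; delta fluorescence → % inhibition → 4-parameter Hill fit.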

[26] = tested on: Zika virus NS2B-NS3 protease (linked construct); assay: Primary screen NINDS Rhodamine qHTS for Zika virus inhibitors (AID 1347160); details: purified NS2B-NS3 protease, Rhodamine110 substrate fluorescence; activity change, negative = inhibition: at 57.1 µM (top of the series); also: % is scaled to controls: 0 for no effect and ±100 for the full control effect; nearly all actives have a fitted effect of over 55% in size
In short: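 Enzyme (25 nM, linked NS2B-NS3) was preincubated 15 min with compound in 10 mM Tris-HCl pH 8.0, 0.01% Tween 20. Rhodamine110 substrate (1.5 microM) was then added and fluorescence read at start and after 15 min.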

[27] = Cytotoxicity counterscreen for inhibitors of SARS-CoV-2 cell entry (AID 1645845; calls by dose curve; also: % is scaled to controls: 0 for no effect and ±100 for the full control effect; nearly all actives have a fitted effect of over 50% in size); details: cell viability (SARS-CoV-2 entry assay cells); at 57.1 µM (top of the series)

Cc1cc([N+](=O)[O-])cc([N+](=O)[O-])c1O
inactive: outcome [1] | outcome [2] | outcome [3] | outcome [4] | activity change, negative = inhibition [5] 1.44% [at 92.8 µM] | activity change, negative = lower viability [6] 34.8% [at 115 µM] | activity change, negative = inhibition [7] -11.3% [at 104 µM] | activity change [8] 36.1% [at 8.54 µM]

CN(C(=O)Cc1ccc(Cl)c(Cl)c1)[C@@H]1CC[C@]2(CCCO2)C[C@H]1N1CCCC1
active: Potency [10] 12.6 µM
inactive: activity change, negative = inhibition [9] -9.48% | activity change, negative = inhibition [11] -43.8% | activity change, negative = inhibition [12] 5.95% | fluorescence change [13] 3.12% | outcome [14] | activity change, negative = inhibition [15] -29.7% | activity, negative = inhibition [16] 6.68% | activity change, negative = inhibition [17] -4.29% | activity change, negative = inhibition [18] -4.7% | activity change, negative = inhibition [19] 14.1% | activity change, negative = inhibition [20] -1.23% | activity change, negative = inhibition [5] 17.8% | activity change, negative = inhibition [21] -2.24% | activity change, negative = reduced viability [22] -8.87% | activity change, negative = lower viability [6] -9.15% | activity change, negative = inhibition [23] -9.27% | activity change, negative = inhibition [24] 4.24% | activity change [8] -28.5%

CCn1c(=O)n([C@@H]2CCN(CC3CCCCCCC3)C[C@H]2CO)c2ccccc21
inactive: activity change, negative = inhibition [25] -7.46% | activity change, negative = inhibition [26] 62% | activity change, negative = cytotoxicity [27] -10.1%
